# According to patent US20210317193A1:
# B1: humanized antibody 25A1-B2B4AQT (antibody, V domains shown)
# VH: QVQLVQSGAEVKKPGASVKVSCKASGYSFTDYNMNWVRQAPGQGLEWMGSINPYYGITSYAQTFKGRVTLTVDKSISTAYMELSRLRSDDTAVYYCARIYYGDSLGLDYWGQGTLVTVSS
# VL: EIVLTQSPATLSLSPGERATLSCSASSSVSYMHWYQQKPGQAPRRWIYDTSKLASGIPARFSGSGSGTDFTLTISSLEPEDFAVYYCQQWSSNPLTFGQGTKVEIK
# B2: humanized antibody 25A1-B5B6AQT (antibody, V domains shown)
# VH: QVQLVQSGAEVKKPGASVKVSCKASGYSFTDYNMNWVRQAPGQGLEWMGSINPYYGITSYAQTFKGRVTLTVDTSISTAYMELSRLRSDDTAVYYCARIYYGDSLGLDYWGQGTLVTVSS
# VL: EIVLTQSPATLSLSPGERATLSCSASSSVSYMHWYQQKPGQAPRRLIYDTSKLASGIPARFSGSGSGTDFTLTISSLEPEDFAVYYCQQWSSNPLTFGQGTKVEIK
# B3: mouse monoclonal antibody 25A1 (antibody, V domains shown)
# VH: QVKLQQSGPELVKPGASVKISCKASGYSFTDYNMNWVKQSHGKSLEWIGSINPYYGITSYNQTFKGKATLTVDKSSSTAYMQLNSLTSEDSAVYYCARIYYGDSLGLDYWGQGTTVTVSS
# VL: DIELTQSPAIMSASPGEKVTMTCSASSSVSYMHWYQQKSGTSPKRWIYDTSKLASGVPARFSGSGSGTSYSLTISSMEAEDAATYYCQQWSSNPLTFGAGTKLEIKR
# Molecular target: various native α-toxin (from the strains tested)
# Test: cell-based or functional assay
row,Binder,inhibition of native α-toxin-mediated RBC lysis
1,B1,50 to 90%
2,B2,50 to 90%
3,B3,50 to 90%
